Measurements from “University of Dundee, Small-Polar-MMV Screening Library” (2021), ChEMBL document CHEMBL3988442.

A: 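Whole-cell growth test on Mycobacterium tuberculosis, read after 4 days in a medium based on cholesterol and the lipid DPPC; the read-out is not stated. Tested at 500 µM. The record gives no direction; compounds that gave an IC50 in retests scored well above the rest, so higher reads as more growth inhibition. Size under these conditions: about 18,000 compounds, about 900 of them at 50% or above in at least one test.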
B: 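Phenotypic screen: M. tuberculosis growth, glucose 7H9 medium, 3 days; the read-out is not stated. Compounds at 500 µM. Direction is inferred from retests: higher values go with more growth inhibition. Size under these conditions: about 18,000 compounds, about 1,400 of them at 50% or above in at least one test.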

Values are the deposited “Percent Effect”, in %. The record does not define 0% and 100%; most values in the screen are far below 50% and negative numbers occur (in some assays of this library far below -100). This is part of a subset picked to be rich in strong results. A dash means the value is not listed here; it may have been measured.

structure	A	B
Cc1ncsc1C(=O)Nc1ccc(N(C)C)cn1	-	-144.8
Cc1cc(C)cc(NC(=O)CCNS(C)(=O)=O)c1	-	5.815
N#Cc1ccc(C2NC(=O)c3cccnc3N2)cc1 (stereo not drawn)	-	-8.708
CC(C(=O)Nc1ccc(C(N)=O)cc1)N1CCCC1 (stereo not drawn)	-	-5.414
COC(=O)NC(C)C(=O)NCCc1nccn1C (stereo not drawn)	-	-2.106
Nc1cncc(-c2ccc(CN3CCCCC3)cn2)c1	-	-1020
CNc1cc(C(=O)NCc2csc(N(C)C)n2)ccn1	5.854	25.76
CN(C)C(=O)c1ccc(CSc2nncs2)cc1	36.34	-
CN(Cn1nnc2ccccc2c1=O)C1CCCC1	-	17.41
COCC(=O)N1CCCN(Cc2cncn2C)CC1	-17.46	-
CC(=O)N1c2ccccc2N(C)CCC1C (stereo not drawn)	-12.25	-
O=C(CCc1ccccn1)Nc1ccc2[nH]nnc2c1	-	6.956
CC(CNCC(F)(F)CO)c1ccccc1 (stereo not drawn)	54.59	-
O=C(CN(Cc1cccs1)C1CC1)N1CCNC1=O	4.023	-
CN(C)C(=O)CSc1ncccc1C#N	-	-0.3094
COc1cc(Br)ccc1CCCNC(=O)C(C)O (stereo not drawn)	30.61	-
COC(=O)c1cnc(I)n1C	-	16.39
CC(CNC(=O)c1cc(O)cs1)CN1CCOCC1 (stereo not drawn)	-	-5.445
CN(C)c1ncc(CN)n1C	-	4.421
COCCC1(CO)CCCN(Cc2c(C)n[nH]c2C)C1 (stereo not drawn)	-	4.451
Cc1noc(Cn2cc(S(=O)(=O)N(C)C)ccc2=O)n1	-	9.51
CC(Sc1nnc(NCC(F)(F)F)s1)C(N)=O (stereo not drawn)	-8.578	13.8
CN(C)C[C@@H]1[C@H]2CN(Cc3cccnc3)C[C@@H]12	-	9.552
CCC(CC)C(=O)NC1CCN(C)CC1	-	3.96
CCC(C)(C)NC(=O)C1CCCN(C(=O)C(C)C)C1 (stereo not drawn)	-	9.647
Cn1nccc1C(=O)N1CCN(c2ncccn2)CC1	-	13.34
CC(C)C1CN(C(=O)CCc2ccccn2)CCS1 (stereo not drawn)	79.32	75.83
CCNC(=O)c1noc(-c2ccc[nH]c2=O)n1	-17.35	-13.59
CCCS(=O)(=O)N1CCC(C(=O)NCCOC)CC1	-	-8.042
NC(=O)CSc1nnc(-c2cc(Br)ccc2O)[nH]1	70.39	78.95
CN(C(=O)CN1CCCC1=O)C1CCCC1	-	-19.24
CC(=O)c1c(SCC(=O)NC2CC2)nc(=O)[nH]c1C	-	5.059
CCN(CC)S(=O)(=O)NCc1cccc(C#N)c1	-	29.59
O=C(CC1C=CCC1)NCCNc1ncccn1 (stereo not drawn)	-	25.62
CCn1nc(CC(C)C)cc1C(=O)N1CC(O)C1	22.63	-
OCCOC1CCCN(c2nc3ccccc3[nH]2)C1 (stereo not drawn)	-	24.56
CS(=O)(=O)N(c1ccccc1)C1CSC1	-	3.804
CNC(=O)CCN1CC(Oc2ccc(C)cc2)C1	-	13.41
NC(=O)N1CCCN(CC2CCCC2)CC1	-	15.55
CCOC(=O)N1CCN(C(=O)c2onc(C)c2Cl)CC1	36.56	36.1
CC(C)(CO)CNC(=O)c1c(O)cccc1F	-	-4.2
O=C(NCC1COCCO1)N(Cc1cccs1)C1CC1 (stereo not drawn)	-	30.08
Cc1cccc(NCCC[S+](C)[O-])n1 (stereo not drawn)	0.8088	-
CCC(NC(=O)c1cnc(O)cn1)c1nc(C)c(C)s1 (stereo not drawn)	-1.004	-
CCC(C)(C)C(=O)NC1CNC[C@@H]1OC (stereo partly drawn)	-	-1.745
CCC(NC(=O)Cc1ccccn1)c1nc(C)c[nH]1 (stereo not drawn)	-	6.322
CC(C)(C)c1nc(CN)no1	-	-7.298
O=C(C1CCOC1)N1CCN(c2ccncc2Cl)CC1 (stereo not drawn)	-	4.587
CCN1CCN(CCOc2ccccc2CO)CC1	-	16.82
COc1ccc(CCSc2nnc[nH]2)cc1	77.17	71.36

The last 5 entries again:

{"structure": "CCC(NC(=O)Cc1ccccn1)c1nc(C)c[nH]1", "stereo": "stereo not drawn", "B": 6.322}
{"structure": "CC(C)(C)c1nc(CN)no1", "B": -7.298}
{"structure": "O=C(C1CCOC1)N1CCN(c2ccncc2Cl)CC1", "stereo": "stereo not drawn", "B": 4.587}
{"structure": "CCN1CCN(CCOc2ccccc2CO)CC1", "B": 16.82}
{"structure": "COc1ccc(CCSc2nnc[nH]2)cc1", "A": 77.17, "B": 71.36}